# Measured values published in US20050048462A1, “Markers and screens” (priority 2001, published 2005).
# Test system: profilin II-GFP transfected hippocampal neurons
substance,measurement,value
botulinum toxin A,Numbers of cells − (no targeting),6
